A mixed list of measured activities; the numbers were collected in NIAID ChemDB.

All rows: tests in culture; agent: Human cytomegalovirus

ECn is the concentration giving n% inhibition of infection, replication or growth.

CC(C)(CF)C(=O)Nc1cccc(NS(=O)(=O)c2ccc(-c3noc(-c4ccccc4)n3)cc2)c1 ; method: cytopathic effect ; cells: HELF ; endpoint: EC50 ; result: 0.04 µM
Nc1nc(-c2ccc(NC(=O)CCN(C(=O)c3cccnc3)C3CCc4ccccc43)cc2)cs1 ; method: plaque count / crystal violet ; cells: HS68 ; endpoint: EC50 ; strain or isolate: AD169 ; result: 8 µM
Nc1nc2c(ncn2C[C@]2(CO)C[C@H]2CO)c(=O)[nH]1 ; method: plaque count ; cells: HEL ; endpoint: EC50 ; strain or isolate: DAVIS ; result: 12 µg/mL
O=P1(O)OCC2O[C@@H](n3cnc4c(NO)ncnc43)[C@H](O)C2O1 ; endpoint: MIC ; result: 10 µg/mL
CCO[C@@H]1[C@@H](OCC)[C@H](Cc2ccccc2)O[C@@H]2CO[C@@H](c3ccc(Cl)cc3)O[C@@H]12 ; method: cytopathic effect ; cells: HFF ; endpoint: EC50 ; result: >20 µg/mL
C=Cc1cn([C@H]2C[C@H](O)[C@@H](CO)O2)c(=S)[nH]c1=O ; method: plaque count ; cells: MRC-5 ; endpoint: EC50 ; strain or isolate: T-137 ; result: >277.6 µM
O=C1c2ccccc2C(=O)N1CCCC1C2CC3CC(C2)CC1C3 ; method: plaque count ; cells: HEL ; endpoint: EC50 ; strain or isolate: DAVIS ; result: ≥4 µg/mL
CC(C)(C)OC(=O)[C@H](Cc1ccccc1)NC(=O)Nc1ccc(-c2csc(N)n2)cc1 ; method: plaque count / crystal violet ; cells: HS68 ; endpoint: EC50 ; strain or isolate: AD169 ; result: >103 µM
Nc1nc2c(ncn2C=C2CC2CO)c(=O)[nH]1 ; method: cytopathic effect ; cells: VERO ; endpoint: EC50 ; result: 1–10 µM
Nc1nc(NC2CC2)c2ncn(/C=C3/C[C@@H]3CO)c2n1 ; method: plaque count ; cells: HFF ; endpoint: EC50 ; result: 1.9 µM
O=c1ccn([C@@]23C[C@H](O)[C@@H](CO)[C@@H]2C3)c(=O)[nH]1 ; method: plaque count ; cells: HFF ; endpoint: EC50 ; result: >100 µg/mL
NC(=S)c1cn(COCCO)c2ncnc(N)c12 ; method: plaque count ; cells: HFF ; endpoint: EC50 ; result: 7 µM
O=P1(O)OCC2O[C@@H](n3cnc4c(=S)nc[nH]c43)[C@H](O)C2O1 ; endpoint: MIC ; result: 3.2–100 µg/mL
Nc1nc2c(ncn2COC(CO)CO)c(=O)[nH]1 ; method: plaque count ; cells: HEL ; endpoint: EC50 ; strain or isolate: LY9990 ; result: 7.5 µg/mL
OCC(CO)OCn1cc(I)c2c(NO)ncnc21 ; method: virus yield ; cells: HFF ; endpoint: EC50 ; strain or isolate: TOWNE ; result: <3.2 µM
CCNc1cc(=O)n2c3c1nnn3C[C@H]1O[C@@H]2[C@H](O)[C@@H]1O ; cells: Huh7 ; endpoint: EC90 ; result: >100 µM
CCCc1cn([C@H]2C[C@H](O)[C@@H](CO)O2)c(=S)[nH]c1=O ; method: plaque count ; cells: MRC-5 ; endpoint: EC50 ; strain or isolate: AD169 ; result: >277.6 µM
O=C(COc1cccc2ccccc12)NN=CCc1ccccc1 ; method: plaque count ; cells: HEL ; endpoint: EC50 ; strain or isolate: DAVIS ; result: >20 µg/mL
Nc1nc2c(ncn2COC(CO)CO)c(=O)[nH]1 ; method: virus yield ; endpoint: EC50 ; strain or isolate: TOWNE ; result: <0.7 µM
Nc1nc(NCC2CC2)c2ncn(/C=C3/C[C@@H]3CO)c2n1 ; method: plaque count ; cells: HFF ; endpoint: EC50 ; result: 52 µM
Nc1ncnc2c1c(I)cn2COC(CO)CO ; method: virus yield ; cells: HFF ; endpoint: EC50 ; strain or isolate: TOWNE ; result: <0.9 µM
Nc1nc(-c2ccc(NC(=O)CCN(Cc3ccccc3)C(=O)C3Cc4ccccc4C3)cc2)cs1 ; method: ELISA ; cells: HS68 ; endpoint: EC50 ; strain or isolate: AD169 ; result: 15 µM
O=c1[nH]c(=O)n([C@H]2C[C@H](O)[C@@H](CO)O2)cc1/C=C/Br ; method: cytopathic effect ; cells: HEL ; endpoint: EC50 ; strain or isolate: AD169 ; result: >50 µM
Cc1cn([C@@H]2O[C@H](CO)[C@@H](O)[C@@H]2O)c(=S)nc1N ; method: plaque count ; cells: MRC-5 ; endpoint: EC50 ; strain or isolate: AD169 ; result: >264.9 µM
Nc1nc2c(ncn2COC(CO)CO)c(=O)[nH]1 ; method: cytopathic effect ; cells: HEL ; endpoint: EC50 ; strain or isolate: DAVIS ; result: 3.8 µM
Nc1cc(=O)n2c3c1nnn3C[C@H]1O[C@@H]2[C@H](O)[C@@H]1O ; cells: Huh7 ; endpoint: EC90 ; result: 29.7 µM
Nc1nc(=S)n([C@@H]2O[C@H](CO)[C@@H](O)[C@@H]2O)cc1/C=C/c1ccccc1 ; method: plaque count ; cells: MRC-5 ; endpoint: EC50 ; strain or isolate: 93-1R ; result: >213 µM
Nc1nc2c(ncn2COC(CO)CO)c(=O)[nH]1 ; method: plaque count ; endpoint: EC90 ; strain or isolate: VR4760 (ganciclovir-resistant) ; result: 93 µM
CCCOc1nc(N)nc2c1ncn2/C=C1/C[C@@H]1CO ; method: plaque count ; cells: HFF ; endpoint: EC50 ; result: 2 µM
Cn1cc(C(=O)O)c(=O)c2cc(N)c(N3CCN(c4nc5ccccc5o4)CC3)cc21 ; method: plaque count ; cells: HEL ; endpoint: EC50 ; strain or isolate: DAVIS ; result: 0.11 µg/mL
CCCCNc1cc(=O)n2c3c1nnn3C[C@H]1O[C@@H]2[C@H](O)[C@@H]1O ; cells: Huh7 ; endpoint: EC90 ; result: >100 µM
N#CCCC12CC3CC(C1)CC(N1C(=O)c4ccccc4C1=O)(C3)C2 ; method: plaque count ; cells: HEL ; endpoint: EC50 ; strain or isolate: DAVIS ; result: >100 µg/mL
OC[C@H]1O[C@@H](n2c(Br)nc3cc(Cl)c(Cl)cc32)[C@H](O)[C@@H]1O ; endpoint: EC50 ; result: <1 µM
Cn1cc(C(=O)O)c(=O)c2cc(N)c(N3CCN(c4cccc(C(F)(F)F)c4)CC3)cc21 ; method: plaque count ; cells: HEL ; endpoint: EC50 ; strain or isolate: DAVIS ; result: 0.86 µg/mL
Cn1ncc2c3cc(Cl)c(Cl)cc3n([C@@H]3O[C@H](CO)[C@@H](O)[C@H]3O)c21 ; method: plaque count ; cells: HFF ; endpoint: EC50 ; result: 0.7 µM
Nc1nc(OCC2CC2)c2ncn(/C=C3/C[C@@H]3CO)c2n1 ; method: plaque count ; cells: HFF ; endpoint: EC50 ; result: 1.7 µM
Nc1nc2c(ncn2CCC(CO)CO)c(=O)[nH]1 ; method: cytopathic effect ; cells: VERO ; endpoint: EC50 ; result: 10–100 µM
CCCSc1nc(N)nc2c1ncn2/C=C1/C[C@@H]1CO ; method: plaque count ; cells: HFF ; endpoint: EC50 ; result: 3 µM
CCCNc1cc(=O)n2c3c1nnn3C[C@H]1O[C@@H]2[C@H](O)[C@@H]1O ; cells: Huh7 ; endpoint: EC90 ; result: >100 µM
NC1=NC2C(C=CN2CC(CO)CCO)C(=O)N1 ; method: cytopathic effect ; cells: VERO ; endpoint: EC50 ; result: 10–100 µM
COc1cc(OC)c(NC(=S)Nc2ccc(NC(=O)c3ccco3)cc2)cc1Cl ; method: virus yield ; endpoint: EC90 ; strain or isolate: 16 isolates ; result: 0.15 µM
CCc1cn([C@H]2C[C@H](O)[C@@H](CO)O2)c(=O)[nH]c1=O ; method: cytopathic effect ; endpoint: EC50 ; strain or isolate: AD169 ; result: >390 µM
CN(C)CC1CCC(C23CC4CC(CC(C4)C2)C3)[C@@H]1c1ccccc1 ; method: cytopathic effect ; cells: HEL ; endpoint: EC50 ; result: >40 µg/mL
O=C1c2ccccc2C(=O)N1C1CC2CC3CC(C2)CC1C3 ; method: plaque count ; cells: HEL ; endpoint: EC50 ; strain or isolate: DAVIS ; result: >100 µg/mL

3 of the rows above, restated:

CN(C)CC1CCC(C23CC4CC(CC(C4)C2)C3)[C@@H]1c1ccccc1 ; method: cytopathic effect ; cells: HEL ; endpoint: EC50 ; result: >40 µg/mL
Nc1nc2c(ncn2C=C2CC2CO)c(=O)[nH]1 ; method: cytopathic effect ; cells: VERO ; endpoint: EC50 ; result: 1–10 µM
Nc1nc2c(ncn2COC(CO)CO)c(=O)[nH]1 ; method: plaque count ; cells: HEL ; endpoint: EC50 ; strain or isolate: LY9990 ; result: 7.5 µg/mL

Neighbouring rows are from separate reports. Two numbers with a dash give a range or band.